# Fitness effects across NS2B and the NS3 protease domain of Zika virus

The scanned region of Zika virus MR766 is shown below (positions 1-308): NS2B is 2-131, NS3 begins at position 132.
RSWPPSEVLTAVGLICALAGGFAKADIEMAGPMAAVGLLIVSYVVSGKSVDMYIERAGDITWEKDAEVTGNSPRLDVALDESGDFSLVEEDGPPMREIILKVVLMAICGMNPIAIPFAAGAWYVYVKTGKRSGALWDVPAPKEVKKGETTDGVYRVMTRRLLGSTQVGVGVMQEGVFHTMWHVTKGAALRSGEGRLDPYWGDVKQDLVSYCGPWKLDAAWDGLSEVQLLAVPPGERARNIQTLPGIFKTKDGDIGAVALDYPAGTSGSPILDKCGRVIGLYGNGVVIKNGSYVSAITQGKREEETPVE

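Mutant virus pools were grown in human Huh-7.5 cells. The effect is the change in frequency of a mutant, normalised to wild type, as a mean of three replicate libraries (two for positions 207-308). The study looked for pockets that tolerate few changes, as a guide for inhibitor design.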

The number is log2 of the effect relative to wild type; negative values mean reduced growth, higher values better tolerance. A change reads original residue, position, new residue. This list holds changes to valine only. Positions 1-103, 104-206 and 207-308 were made and measured as separate libraries. Six mutants with high scores were retested singly and none clearly outgrew wild type, so positive values are not proof of better growth. Position 1 still belongs to NS2A. In the paper, -1 or higher counts as tolerated.

- T184V = -6.72
- K185V = -5.45
- G186V = -6.31
- A187V = -5.17
- A188V = -5.68
- L189V = -2.16
- R190V = -5.14
- S191V = -2.19
- G192V = -7.02
- E193V = -1.85
- G194V = -7.06
- R195V = -6.46
- L196V = -2.29
- D197V = -0.51
- P198V = -2.94
- Y199V = -1.36
- W200V = -7.44
- G201V = -7.02
- D202V = -6.25
- K204V = -7.85
- Q205V = -5.15
- D206V = -7.33
- L207V = -2.62
- S209V = -3.99
- Y210V = -7.54
- C211V = -0.71
- G212V = -7.98
- P213V = -5.58
- W214V = -8.23
- K215V = -5.12
- L216V = -7.74
- D217V = -7.00
- A218V = -3.64
- A219V = 1.34
- W220V = -6.95
- D221V = -6.78
- G222V = -7.22
- L223V = -0.57
- S224V = -6.75
- E225V = -4.22
- Q227V = -6.53
- L228V = -5.91
- L229V = -3.68
- A230V = -0.42
- P232V = 0.04
- P233V = -6.11

Extract of 4 entries:

For R190V the result was -5.14.
For Q227V the result was -6.53.
For G194V the result was -7.06.
For W200V the result was -7.44.

From the data files of Ni et al. 2025, doi:10.1038/s41467-025-63602-z.